The list shows a part of the results, in another mix than the full data. Activity calls are given as the source filed them. Cut-off read from the data, not from the text of the source: active = inhibition above about 10% (passing the limit was not always enough); inconclusive = no clear call, values can overlap the other calls.
Target: UDP-galactopyranose mutase (Mycobacterium tuberculosis (strain ATCC 25618 / H37Rv)) (UniProt P9WIQ1)
Experiment: blockers of Mtb UDP-galactopyranose mutase – biochemical, fluorescence polarization, single point, primary screen (AID 504406)
Details: purified UGM, fluorescence polarization probe displacement; at 10 µM; stronger effect = higher value

Protein sequences, listed by entry. Tags and fused reporters are not part of them. Lines headed by an entry give the natural chain unless they say otherwise; changes in a name come on top.
UniProt P9WIQ1: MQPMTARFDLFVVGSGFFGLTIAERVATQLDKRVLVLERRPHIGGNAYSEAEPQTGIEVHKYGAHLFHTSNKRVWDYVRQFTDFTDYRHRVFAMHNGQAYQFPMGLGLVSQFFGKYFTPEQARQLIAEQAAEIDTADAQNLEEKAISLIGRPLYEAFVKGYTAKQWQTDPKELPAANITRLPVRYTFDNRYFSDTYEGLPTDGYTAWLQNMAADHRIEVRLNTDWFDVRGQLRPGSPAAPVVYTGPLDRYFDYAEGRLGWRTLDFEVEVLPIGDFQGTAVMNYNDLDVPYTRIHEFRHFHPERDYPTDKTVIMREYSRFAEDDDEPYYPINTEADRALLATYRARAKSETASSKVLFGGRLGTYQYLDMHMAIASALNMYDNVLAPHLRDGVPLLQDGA

| Compound | inhibition |
| --- | --- |
| O=[N+]([O-])c1cc([N+](=O)[O-])c(CCN2CCOCC2)c([N+](=O)[O-])c1 | inactive: 0.672% |
| Nc1cccc2ccc([As](=O)(O)O)cc12 | inactive: -1.83% |
| CCN(N=Nc1nonc1N)c1nonc1N | inactive: -2.9% |
| O=P(Nc1nc2ccc(Cl)cc2s1)(c1ccccc1)c1ccccc1 | inactive: 0.96% |
| O=C(O)c1ccccc1[As](=O)(O)O | inactive: 2.84% |
| CC(=O)Nc1ccc([As](=O)(O)O)cc1 | inactive: 0.384% |
| Cc1ccc(NP(=O)(Oc2ccccc2F)Oc2ccccc2F)nc1 | inactive: -1.59% |
| CN(C(=O)Cc1ccc(Cl)c(Cl)c1)[C@H]1CCCC[C@@H]1N1CCCC1 | inactive: 1.23% |
| CCOP(=O)(Nc1ccccc1)OCC | inactive: -1.22% |
| Cc1cc(SC(NC(=O)c2ccc(F)cc2)C(Cl)(Cl)Cl)ncn1 (centres undefined) | inactive: -0.374% |
| Cc1c2non([O-])c-2c(C)[n+](=O)[n+]1[O-] | inactive: -4.11% |
| O=C(NC(Sc1ccncn1)C(Cl)(Cl)Cl)c1ccccc1 (centres undefined) | inactive: 0.162% |
| Oc1ccccc1CNc1ccccn1 | inactive: -1.2% |
| CC(C)CC(=O)NC(Sc1ccc(Cl)cc1)C(Cl)(Cl)Cl (centres undefined) | inactive: -1.4% |
| Nc1cc(N)c2nonc2c1[N+](=O)[O-] | inactive: 0.669% |
| Cc1ccc(N/C(=N/P(=O)(N2CCOCC2)N2CCOCC2)N2CCOCC2)cc1 | inactive: 5.43% |
| CN(C(=O)Cc1ccc(Cl)c(Cl)c1)[C@H]1CCCC[C@H]1N1CCCC1 | inactive: -1.59% |
| NC(=O)c1cc([N+](=O)[O-])cc([N+](=O)[O-])c1N | inactive: -3.17% |
| Clc1ccc(Cl)c(NC2=NCC(CBr)S2)c1 (centres undefined) | inactive: 2.92% |
| CN1CCCC(OC(=O)C(c2ccccc2)c2ccccc2)C1 (centres undefined) | inactive: -1.18% |
| Cc1ccc(OP(=O)(Nc2nccs2)Oc2ccc(C)cc2)cc1 | inactive: -0.478% |
| COc1ccccc1OP(=O)(Nc1ccc(C)cn1)Oc1ccccc1OC | inactive: -2.32% |
| CCN(/C(=N/P(=O)(N1CCOCC1)N1CCOCC1)N1CCOCC1)c1ccc(OC)cc1 | inactive: -3.07% |
| C[N+]1=C2C=CC=CC=C2SC12C([N+](=O)[O-])=CC([N+](=O)[O-])=C[C-]2[N+](=O)[O-] (centres undefined) | inactive: 3.76% |
| Nc1ccc([As](=O)(O)c2ccc(N)cc2)cc1 | inactive: 1.17% |

| Compound | inhibition |
| --- | --- |
| CC1CCN(C(=O)Oc2c(Cl)cc(Cl)c3cccnc23)CC1 | inactive: -2.44% |
| CN(C)C(=O)OCCc1n(C)cc[n+]1C | inactive: -1.83% |
| CC(C)=N/N=C(\N)N[N+](=O)[O-] | inactive: 4.19% |
| COc1ccc(C2=NCC(CBr)S2)cc1 (centres undefined) | inactive: -0.864% |
| CCc1nc2c(n1)c1c(non1O)c1c2no[n+]1[O-] | inactive: 2.71% |
| O=[N+]([O-])c1cc([N+](=O)[O-])c(CCNc2ccccc2)c([N+](=O)[O-])c1 | inactive: -3.76% |
| Cc1ccc(NP(=O)(Oc2ccccc2)Oc2ccccc2)nc1 | inactive: -0.745% |
| O=[N+]([O-])c1cccc2n[nH]nc12 | inactive: -0.441% |
| CC(=O)N1C2C3N(C(C)=O)C1C1N(C(C)=O)C(C(N1C(C)=O)N3C(C)=O)N2C(C)=O | inactive: -0.55% |
| O=[N+]([O-])c1ncn(CCn2ncnc2[N+](=O)[O-])n1 | inactive: 0.167% |
| CC(C)(C)C(=O)NC(Sc1ccncn1)C(Cl)(Cl)Cl (centres undefined) | inactive: -2.39% |
| O=C(O)CNc1ccc([As](=O)(O)O)cc1 | inactive: -1.02% |
| O=[N+]([O-])c1cccc(NC2=NCC(CBr)S2)c1 (centres undefined) | inactive: 0.467% |
| O=C(Nc1cc([As](=O)(O)O)ccc1O)c1ccccc1 | inactive: -0.858% |
| O=[As](O)(c1ccccc1)c1ccc(O)cc1 | inactive: 1.14% |
| O=[N+]([O-])c1ccc(O)c(/C=N/Nc2ccc([N+](=O)[O-])cc2[N+](=O)[O-])c1 | inactive: 1.6% |
| O=[N+]([O-])c1ncn(CCn2cnc([N+](=O)[O-])n2)n1 | inactive: 0.13% |
| CC(=O)NC(SC(=S)N(C)C)C(Cl)(Cl)Cl (centres undefined) | inactive: -0.578% |
| O=C(OC1CN2CCC1CC2)c1cccc(Cl)c1 (centres undefined) | inactive: -3.17% |
| Nc1ccc([As](=O)(O)c2ccc([N+](=O)[O-])cc2)cc1 | inactive: -1.7% |
| C(Cc1nn[nH]n1)Cc1nn[nH]n1 | inactive: 1.35% |
| O=P(Nc1ccccn1)(c1ccc(Br)cc1)c1ccc(Br)cc1 | inactive: 1.04% |
| CN(C)C1(CNC(=O)c2ccc(Cl)c(S(N)(=O)=O)c2)CCCCC1 | inactive: -1.04% |
| C[C@H]1OP(=O)(Oc2ccccc2)[C@H](O)[C@H](O)[C@H]1N=[N+]=[N-] (some centres undefined) | inactive: 0.2% |
| O=P(Nc1nc2ccccc2s1)(c1ccccc1)c1ccccc1 | inactive: -0.337% |

| Compound | inhibition |
| --- | --- |
| CC(C)C(=O)NC(Sc1ccccc1)C(Cl)(Cl)Cl (centres undefined) | inactive: 0.679% |
| O=P(Nc1nccs1)(c1ccccc1)c1ccccc1 | inactive: 0.848% |
| c1nnnn1CCn1cnnn1 | inactive: -0.646% |
| C[C@@H]1C=CCP(=O)(Oc2ccccc2)O1 (some centres undefined) | inactive: 1.02% |
| C[C@H]1OP(=O)(Oc2ccccc2)C[C@@H]2O[C@@H]21 (some centres undefined) | inactive: -3.78% |
| CC(=O)c1ccc(N2CC2c2ccncc2)cc1 (centres undefined) | inactive: 0.166% |
| CC(=O)Nc1ccc(Oc2c([N+](=O)[O-])cc([N+](=O)[O-])cc2[N+](=O)[O-])cc1 | inactive: 0.41% |
| CC(=O)Nc1ccc([As](=O)(O)O)c(O)c1 | inactive: 1.09% |
| CCOc1ccc(C2=NCC(CBr)S2)cc1 (centres undefined) | inactive: 1.26% |
| O=P1(Nc2nc3ccc(Cl)cc3s2)COc2ccccc2O1 (centres undefined) | inactive: 1.3% |
| CC(C)(C)C(=O)NC(Sc1ccccc1)C(Cl)(Cl)Cl (centres undefined) | inactive: -0.662% |
| CCC(=O)N1C2C3N(C(=O)CC)C1C1N(C(=O)CC)C(C(N1C(=O)CC)N3C(=O)CC)N2C(=O)CC | inactive: 0.514% |
| O=C(OC1CN2CCC1CC2)c1ccccc1 (centres undefined) | inactive: -0.657% |
| Cc1ccc(OP(=O)(Nc2ccccn2)Oc2ccc(C)cc2)cc1 | inactive: -2% |
| CC(=O)NC(SC(=S)N(CC(C)C)CC(C)C)C(Cl)(Cl)Cl (centres undefined) | inactive: 5.98% |
| COC(=O)c1cc2c(s1)N=C(c1ccccc1)N(C)P2(=O)N1CCOCC1 (centres undefined) | inactive: 1.2% |
| CN(C)C(=O)Oc1noc2ccccc12 | inactive: 0.884% |
| Cc1ccccc1OP(=O)(Nc1ccccn1)Oc1ccccc1C | inactive: 0.49% |
| CC(NC(=O)COC(=O)C(O)(c1ccccc1)c1ccccc1)c1ccccc1 (centres undefined) | inactive: -0.628% |
| CCOC(=O)NC(Sc1ccccc1)C(Cl)(Cl)Cl (centres undefined) | inactive: 3.32% |
| Cc1ccc(NP(=O)(Oc2cccc(C)c2)Oc2cccc(C)c2)nc1 | inactive: -0.711% |
| c1ccc(-c2nn[nH]n2)c(-c2nn[nH]n2)c1 | inactive: 1.3% |
| CCNC(=S)/N=C(\N)N[N+](=O)[O-] | inactive: -0.0976% |
| O=C(NC1CCS(=O)(=O)C1)NP(=S)(Oc1ccccc1)Oc1ccccc1 (centres undefined) | inactive: 1.65% |
| NC(=O)Nc1ccc([As](=O)(O)O)cc1 | inactive: 1.66% |

| Compound | inhibition |
| --- | --- |
| CN(C(=O)Cc1ccccc1)[C@@H]1CC[C@]2(CCCO2)C[C@H]1N1CCCC1 | inactive: 3.32% |
| CCOP1(=S)c2c(C)nn(CCC#N)c2N=C(c2ccc(F)cc2)N1C (centres undefined) | inactive: 1.25% |
| N#CCCN(C(=O)COC(=O)C(O)(c1ccccc1)c1ccccc1)c1ccc(F)cc1 | inactive: 0.285% |
| CN(C(=O)Cc1ccc(Cl)c(Cl)c1)[C@H]1CC[C@@]2(CCCO2)C[C@@H]1N1CCCC1 | inactive: 0.956% |
| CN(C)C(=O)c1cc([N+](=O)[O-])cc2c1-c1c(cc([N+](=O)[O-])cc1[N+](=O)[O-])C2=O | inactive: 2.37% |
| O=[N+]([O-])c1ccc2c(c1)nnn2O | inactive: 0.528% |
| O=P(Nc1nccs1)(c1ccccc1)c1nc2ccccc2s1 (centres undefined) | inactive: 1.26% |
| O=P(Nc1nccs1)(Oc1ccccc1)Oc1ccccc1 | inactive: 1.06% |
| CCOP1(=S)c2c(C)nn(CCC#N)c2N=C(c2ccccc2F)N1C (centres undefined) | inactive: -0.197% |
| CS(=O)(=O)c1cc([N+](=O)[O-])c2no[n+]([O-])c2c1 | inactive: -1.08% |
| Nc1ccccc1[As](=O)(O)c1ccccc1 | inactive: 0.274% |
| O=C(O)COc1ccc([As](=O)(O)O)cc1[N+](=O)[O-] | inactive: -0.143% |
| Nc1cccc2c([As](=O)(O)O)cccc12 | inactive: 9.57% |
| Cc1ccc(NCCc2c([N+](=O)[O-])cc([N+](=O)[O-])cc2[N+](=O)[O-])cc1 | inactive: 0.0348% |
| CCCOP(=S)(Nc1nc(N)cc(=O)[nH]1)OCCC | inactive: -1.97% |
| CCOP(=O)(Nc1cccc2ccccc12)OCC | inactive: 3.61% |
| COc1cc(C2NCCC3(OCCO3)C2(C)C)cc(OC)c1OC (centres undefined) | inactive: -0.666% |
| O=C(OC1CN2CCC1CC2)c1ccc(Cl)cc1 (centres undefined) | inactive: -1.61% |
| CS(=O)(=O)c1ccc(Cl)c(NC(=O)COC(=O)C(O)(c2ccccc2)c2ccccc2)c1 | inactive: 0.177% |
| COc1cc(C(=O)NCC2(N3CCOCC3)CCCCC2)cc(Cl)c1OC(C)C | inactive: -2.41% |
| O=[As](O)(O)c1cccnc1 | inactive: 0.75% |
| O=[As](O)(c1cccc(O)c1)c1cccc(O)c1 | inactive: 2.07% |
| Cc1cccc(OCC(=O)OC2CN3CCC2CC3)c1 (centres undefined) | inactive: 0.904% |
| COc1ccccc1CNC(=O)COC(=O)C(O)(c1ccccc1)c1ccccc1 | inactive: 0.183% |

Source: PubChem BioAssay AID504406 (Broad Institute, 2011)
